Experimental data published in US20070059799A1.

Target: HLA-A*0201 (Human)

HBV ENV 244 peptide … (11-mer) gave a binding affinity ratio (IC50 of standard peptide / IC50 of test peptide) of 0.0002.
